As usually defined, the inhibition is the drop in the measured response relative to a control, in per cent.

Protein sequences, listed by entry. Tags and fused reporters are not part of them.
UniProt P0A9M0, whole entry: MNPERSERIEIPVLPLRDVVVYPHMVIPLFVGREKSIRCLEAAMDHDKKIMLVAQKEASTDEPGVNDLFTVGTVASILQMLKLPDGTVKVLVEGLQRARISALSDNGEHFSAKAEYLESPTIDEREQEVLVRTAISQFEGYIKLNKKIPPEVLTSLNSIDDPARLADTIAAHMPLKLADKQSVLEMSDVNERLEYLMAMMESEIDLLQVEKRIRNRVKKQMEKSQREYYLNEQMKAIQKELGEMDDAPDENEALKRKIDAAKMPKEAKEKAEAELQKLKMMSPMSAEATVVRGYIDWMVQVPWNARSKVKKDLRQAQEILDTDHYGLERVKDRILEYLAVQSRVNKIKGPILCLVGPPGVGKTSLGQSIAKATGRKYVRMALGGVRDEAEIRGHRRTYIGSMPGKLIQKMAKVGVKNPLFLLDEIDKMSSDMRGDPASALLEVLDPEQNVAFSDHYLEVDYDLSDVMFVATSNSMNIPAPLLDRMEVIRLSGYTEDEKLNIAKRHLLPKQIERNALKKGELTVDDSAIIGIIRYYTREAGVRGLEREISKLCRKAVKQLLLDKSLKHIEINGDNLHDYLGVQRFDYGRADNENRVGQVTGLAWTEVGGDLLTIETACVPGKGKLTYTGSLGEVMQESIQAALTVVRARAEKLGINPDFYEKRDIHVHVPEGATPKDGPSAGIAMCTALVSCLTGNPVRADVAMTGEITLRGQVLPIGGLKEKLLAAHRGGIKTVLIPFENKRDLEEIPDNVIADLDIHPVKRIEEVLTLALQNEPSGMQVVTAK

Structures are written as SMILES. This is a selection; strong and weak results do not stand in their true shares. Active and inactive are the calls of the source. No stated cut-off is given here; in the data, active means inhibition above about 13% (passing the limit was not always enough); inactive means the rest.

The test concerns the target Lon protease (Escherichia coli (strain K12)) (UniProt P0A9M0). As to the kind of experiment: E. coli eLon protease inhibition – biochemical, fluorescence polarization, primary screen (AID 602123).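 Further: 0% = enzyme with probe and DMSO and 100% = no enzyme.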 To be noted: purified E. coli Lon protease, at 7.94 µM, stronger effect = higher value. (In general: Polarisation of emitted light reports the rotation of a fluorescent probe.)
`O=c1[nH]c2ccccc2n1C1CCN(C(c2cccs2)c2nnnn2C2CCCCC2)CC1` (stereo unspecified): the inhibition is inactive: -7.42%.

In the case of `O=c1[nH]c2ccccc2n1C1CCN(C(c2ccnc3ccccc23)c2nnnn2C2CCCC2)CC1` (stereo unspecified), the inhibition was inactive: -7.91%.

Consider `COc1ccc(C(=O)NCC2(N3CCOCC3)CCCCC2)cc1OC`, for which the inhibition is inactive: -8.04%.

`COc1cc(C(=O)NCC2(N3CCOCC3)CCCCC2)cc(OC)c1C`: the inhibition is inactive: -10.4%.

On to `CCCCn1nnnc1C(c1ccccc1)N1CCC(n2c(=O)[nH]c3ccccc32)CC1` (stereo unspecified), for which the inhibition was inactive: -3.63%.

On to `O=C(NCC1(N2CCOCC2)CCCCC1)c1cc(Br)ccc1Cl`, for which the inhibition was inactive: -7.46%.

`O=c1[nH]c2ccccc2n1C1CCN(C(c2cccs2)c2nnnn2C2CCCC2)CC1` (stereo unspecified): the inhibition was inactive: -2.61%.

Take `O=C(OC1CN2CCC1CC2)C1c2ccccc2C=Cc2ccccc21` (stereo unspecified): the inhibition was inactive: -13.2%.

Regarding `CCCCn1nnnc1C(c1cccc(OC)c1OC)N1CCC(n2c(=O)[nH]c3ccccc32)CC1` (stereo unspecified), the inhibition is inactive: 1.24%.

With `CCOC(=O)N1CCC(Nc2ccc(C)cc2)CC1`, the inhibition was inactive: 1.42%.

Take `COc1cccc(C(c2nnnn2C(C)(C)C)N2CCC(n3c(=O)[nH]c4ccccc43)CC2)c1OC` (stereo unspecified): the inhibition is inactive: -6.79%.

Consider `N/C(=N\O)c1c(N)no[n+]1[O-]`, for which the inhibition is inactive: 0.32%.

In the case of `N#Cc1ccc(C(=O)NCC2(N3CCCCC3)CCCCC2)cc1`, the inhibition was inactive: -1.39%.

As to `CC(C)(C)OC(=O)N1CCC(N(C(=O)c2ccccc2)c2ccc(Cl)cc2)CC1`, the inhibition was inactive: 3.99%.

As for `CC(C)(C)n1nnnc1C(c1cccc2ccccc12)N1CCC(n2c(=O)[nH]c3ccccc32)CC1` (stereo unspecified), the inhibition is inactive: -5.44%.

As to `CN(C)C1(CNC(=O)c2cccc(C#N)c2)CCCCC1`, the inhibition is inactive: -1.65%.

For the compound `Cc1cc(N(CCCl)CCCl)ccc1C=O`, the inhibition was inactive: -9.74%.

In the case of `CCCN1CCC(Nc2cc(OC)cc(OC)c2)CC1`, the inhibition was inactive: 12%.

Consider `O=c1[nH]c2ccccc2n1C1CCN(C(c2ccccc2)c2nnnn2C2CCCC2)CC1` (stereo unspecified), for which the inhibition was inactive: -6.44%.

As for `c1ccc(CN2CCC(Nc3ccccc3)CC2)cc1`, the inhibition was inactive: -5.62%.

As for `Fc1ccccc1NC1CCN(Cc2ccccc2)CC1`, the inhibition is inactive: -10.9%.

Turning to `Cc1ccc(C(=O)NCC2(N3CCCCC3)CCCCC2)o1`, the inhibition is inactive: -6.64%.

As for `Cc1ccc(NC2(C#N)CCN(Cc3ccccc3)CC2)cc1`, the inhibition was inactive: -13%.

In the case of `CCC(c1nnnn1C1CCCCC1)N1CCC(n2c(=O)[nH]c3ccccc32)CC1` (stereo unspecified), the inhibition was inactive: -0.99%.

Consider `COc1cccc(C(c2nnnn2C2CCCCC2)N2CCC(n3c(=O)[nH]c4ccccc43)CC2)c1OC` (stereo unspecified), for which the inhibition was inactive: -6.51%.

In the case of `CC(=O)N(c1ccccc1)C1CCNCC1`, the inhibition is inactive: -6.34%.

As for `COc1cc(OC)cc(C(=O)NCC2(N3CCCCC3)CCCCC2)c1`, the inhibition is inactive: -8.07%.

Turning to `O=c1[nH]c2ccccc2n1C1CCN(C(c2ccnc3ccccc23)c2nnnn2C2CCCCC2)CC1` (stereo unspecified), the inhibition was inactive: 0.54%.

Take `CN(C)c1ccc(C(=O)NCC2(N3CCCCC3)CCCCC2)cc1`: the inhibition was inactive: -10.5%.

On to `Cn1c(=O)[nH]cc(N(CCCl)CCCl)c1=O`, for which the inhibition was inactive: 2.82%.

`O=C(NCC1(N2CCCCC2)CCCCC1)c1ccco1`: the inhibition was inactive: -2.56%.

As to `CCN1CCC(Nc2cccc(F)c2)CC1`, the inhibition was inactive: 0.18%.

For `COc1ccc(C(c2nnnn2C2CCCCC2)N2CCC(n3c(=O)[nH]c4ccccc43)CC2)cc1` (stereo unspecified), the inhibition is inactive: -5.05%.

Turning to `CC(C)(C)n1nnnc1C(c1ccnc2ccccc12)N1CCC(n2c(=O)[nH]c3ccccc32)CC1` (stereo unspecified), the inhibition was inactive: -4.47%.

With `Cc1ccccc1NC1(C#N)CCN(Cc2ccccc2)CC1`, the inhibition is inactive: -8.98%.

With `NN(c1ccccc1)C1CCN(CCc2ccccc2)CC1`, the inhibition is inactive: -0.89%.

Regarding `O=C(O)C1(Nc2ccccc2)CCN(Cc2ccccc2)CC1`, the inhibition is inactive: -6.32%.

For the compound `CC(C)(C)OC(=O)N1CCC(Nc2ccccc2)CC1`, the inhibition was inactive: -4.38%.

Consider `O=c1[nH]c2ccccc2n1C1CCN(C(c2cc3ccccc3o2)c2nnnn2C2CCCC2)CC1` (stereo unspecified), for which the inhibition was inactive: -6.54%.

In the case of `CCCOc1ccc(C(=O)NCC2(N(C)C)CCCCC2)cc1`, the inhibition was inactive: -8.04%.

On to `CN1CCC(Nc2ccc(F)c(Cl)c2)CC1`, for which the inhibition is inactive: 3.07%.

As to `CCOc1ncccc1C(=O)NCC1(N2CCOCC2)CCCCC1`, the inhibition was inactive: -3.44%.

With `CN1CCC(Nc2ccc(Cl)cc2)CC1`, the inhibition is inactive: 2.34%.

Regarding `COc1cccc(C(=O)N(c2cc(C)cc(C)c2)C2CCN(C(=O)OC(C)(C)C)CC2)c1`, the inhibition is inactive: -8.73%.

As for `COc1cccc(C(c2nnnn2C2CCCC2)N2CCC(n3c(=O)[nH]c4ccccc43)CC2)c1OC` (stereo unspecified), the inhibition was inactive: -6.56%.

As to `COc1cc(OC)cc(C(=O)NCC2(N3CCOCC3)CCCCC2)c1`, the inhibition is inactive: -5.17%.

`CCC(CO)(C(=O)OC1CN2CCC1CC2)c1ccccc1` (stereo unspecified): the inhibition is inactive: 1.68%.

In the case of `Cc1cccc(NC2(C#N)CCN(Cc3ccccc3)CC2)c1`, the inhibition was inactive: 0.42%.

On to `CSc1ccccc1C(=O)NCC1(N2CCCCC2)CCCCC1`, for which the inhibition was inactive: 0.73%.

Regarding `CC(C)(C)OC(=O)N1CCC(N(C(=O)c2ccccc2)c2ccc(F)cc2)CC1`, the inhibition is inactive: 7.44%.

As for `COc1ccc(C(=O)NCC2(N3CCCCC3)CCCCC2)c(OC)c1OC`, the inhibition was inactive: 0.71%.

Take `CCC(c1nnnn1C1CCCC1)N1CCC(n2c(=O)[nH]c3ccccc32)CC1` (stereo unspecified): the inhibition was inactive: -5.45%.

Take `COc1ccc(C(=O)NCC2(N3CCCCC3)CCCCC2)cc1`: the inhibition is inactive: -4.54%.

Consider `O=C(NCC1(N2CCCCC2)CCCCC1)c1cccs1`, for which the inhibition is inactive: 1.37%.

`CCCCn1nnnc1C(CC)N1CCC(n2c(=O)[nH]c3ccccc32)CC1` (stereo unspecified): the inhibition was inactive: 1.21%.

For `CCCCn1nnnc1C(c1cccs1)N1CCC(n2c(=O)[nH]c3ccccc32)CC1` (stereo unspecified), the inhibition is inactive: -7.57%.

As for `O=C(NCC1(N2CCCCC2)CCCCC1)c1ccc(=O)[nH]c1`, the inhibition was inactive: 0.95%.

As to `COc1ccc(Cl)cc1C(=O)NCC1(N2CCOCC2)CCCCC1`, the inhibition is inactive: 4.71%.

For the compound `N#CC1(Nc2ccccc2)CCN(Cc2ccccc2)CC1`, the inhibition was inactive: 2.17%.

For the compound `O=C(NCC1(N2CCCCC2)CCCCC1)c1ccc(Cl)s1`, the inhibition is inactive: -19.1%.

Take `O=c1[nH]c2ccccc2n1C1CCN(C(c2cc3ccccc3o2)c2nnnn2C2CCCCC2)CC1` (stereo unspecified): the inhibition was inactive: 3.72%.
